Compound potency records, mixed from different reports. Data source: NIAID ChemDB in PubChem.

All rows: target-level tests; species: Hepatitis C virus; target: RNA-dependent RNA polymerase; endpoint: IC50

ICn: concentration for n% inhibition. Neighbouring rows are from separate reports. a–b is a range or a potency band.

smiles | value
O=C(O)C(Cc1ccccc1)N(Cc1cc(-c2ccc(F)c(Cl)c2)cs1)C(=O)c1ccc(Cl)cc1Cl | <5 µM
CC(C)CNC(=O)C1=C[C@@](CC(C)C)(C(=O)O)N(C(=O)c2ccc(C(C)(C)C)cc2)[C@H]1c1nccs1 | <50 µM
NN1CCN(/N=C\c2cc(O)c(O)c(O)c2)CC1 | 5 µM
CC(C)C[C@@]1(C(=O)O)C=C(C(=O)NCc2ccccc2)[C@H](c2nccs2)N1C(=O)c1ccc(C(C)(C)C)cc1 | <50 µM
COc1cc(C(=O)N2[C@@H](c3cscn3)[C@@H](C#N)C[C@@]2(CC(C)C)C(=O)O)ccc1C(C)(C)C | <10 µM
Oc1cc(/C=N\N2CCOCC2)cc(O)c1O | 10 µM
CC(C)C[C@@]1(C(=O)O)C=C(C(=O)NCC#N)[C@H](c2nccs2)N1C(=O)c1ccc(C(C)(C)C)cc1 | <50 µM
COc1cc(C(=O)N2[C@@H](c3nccs3)[C@@H](c3nsc(C)n3)C[C@@]2(CC(C)C)C(=O)O)ccc1C(C)(C)C | <50 µM
O=Cc1ccc(O)c(O)c1 | >1000 µM
Cc1ccc(C(=O)NCc2cccnc2)c(Nc2ccc3cn[nH]c3c2)n1 | ~0.1 µg/mL
O=C(O)[C@@H](Cc1ccccc1)N(Cc1cc(Br)cs1)C(=O)c1ccc(Cl)cc1Cl | <5 µM
CCOC(=O)c1cc2nc(-c3ccc(Cl)cc3)cc(-c3cccc(OC)c3)n2n1 | >10 µM
CC(C)C[C@@]1(C(=O)OC(C)(C)C)C=C(C(N)=O)[C@H](c2nccs2)N1C(=O)c1ccc(C(C)(C)C)c(Br)c1 | <50 µM
COc1cc(C(=O)N2[C@@H](c3nccs3)[C@@H](C#N)C[C@@]2(CC(C)C)C(=O)O)ccc1C(C)(C)C | <10 µM
Cc1ccc(C(=O)NC2CCC(O)CC2)c(Nc2ccc3[nH]ncc3c2)n1 | <0.1 µg/mL
C[N+]1(Cc2ccccc2)CCN(/N=C\c2ccc(O)c(O)c2O)CC1 | 30–40 µM
COc1cc(C(=O)N2[C@@H](c3cscn3)[C@@H](c3nc(C)no3)C[C@@]2(CC(C)C)C(=O)O)ccc1C(C)(C)C | <50 µM
O=C(O)[C@H](Cc1ccccc1)N(CC#Cc1cc2ccccc2o1)C(=O)c1ccc(Cl)cc1Cl | <5 µM
O=C(O)c1cc2nc(-c3ccc(Cl)cc3Cl)cc(-c3ccsc3)n2n1 | >10 µM
Cc1ccc(C(=O)NC(C)C)c(Nc2ccc3cn[nH]c3c2)n1 | <1 µg/mL
O=C(O)C(Cc1ccccc1)N(Cc1cc(-c2ccncc2)cs1)C(=O)c1ccc(Cl)cc1Cl | <5 µM
CC(=O)C(=O)C(=O)Nc1cnn2c(C3CCCCC3)c(-c3ccc(OCc4ccccc4)cc3)cnc12 | >10 µM
Cc1ccc(C(=O)NN2CCOCC2)c(Nc2ccc3[nH]ncc3c2)n1 | <0.1 µg/mL
NN1CCN(/N=C\c2ccc(O)c(O)c2)CC1 | 100–200 µM
Cc1noc([C@@H]2C[C@@](CC(C)C)(C(=O)O)N(C(=O)c3ccc(C(C)(C)C)cc3)[C@H]2c2nccs2)n1 | <50 µM
O=C(O)[C@H](Cc1ccccc1)N(Cc1ccc(-c2ccccc2[N+](=O)[O-])o1)C(=O)c1ccc(Cl)cc1Cl | <5 µM
c1cc(OCC2CC2)cc(-c2cnc3c(-c4nn[nH]n4)cnn3c2C2CCCCC2)c1 | 1–10 µM
CC(C)C[C@@]1(C(=O)O)C=C(C(=O)NCCC(N)=O)[C@H](c2nccs2)N1C(=O)c1ccc(C(C)(C)C)cc1 | <50 µM
COc1cc(C(=O)N2[C@@H](c3ccccn3)[C@H](C#N)C[C@@]2(CC(C)C)C(=O)O)ccc1C(C)(C)C | <10 µM
COc1cc(C(=O)N2[C@@H](c3cccs3)[C@H](c3noc(C)n3)C[C@@]2(CC(C)C)C(=O)O)ccc1C(C)(C)C | <50 µM
Cc1ccc(C(=O)Nc2cccnc2)c(Nc2ccc3cn[nH]c3c2)n1 | <1 µg/mL
Oc1ccc(/C=N\N2CCOCC2)cc1O | >400 µM
CC(C)C[C@@]1(C(=O)O)C[C@H](C#N)[C@H](c2nccs2)N1C(=O)c1ccc(C(C)(C)C)cc1 | <10 µM
CC(C)C[C@@]1(C(=O)O)C=C(C(=O)NCC(=O)O)[C@H](c2nccs2)N1C(=O)c1ccc(C(C)(C)C)cc1 | <50 µM
COc1cc(C(=O)N2[C@@H](c3cscn3)[C@H](c3nc(C)no3)C[C@@]2(CC(C)C)C(=O)O)ccc1C(C)(C)C | <50 µM
COc1cc(C(=O)N2[C@@H](c3cccs3)[C@H](C#N)C[C@@]2(CC(C)C)C(=O)O)ccc1C(C)(C)C | <10 µM
CN1CCN(/N=C\c2cc(O)c(O)c(O)c2)CC1 | 10 µM
Cc1ccc(C(=O)NN2CCN(C)CC2)c(Nc2ccc3cn[nH]c3c2)n1 | <1 µg/mL
COc1cc(C(=O)N2[C@@H](c3nccs3)[C@@H](c3nnc(C)o3)C[C@@]2(CC(C)C)C(=O)O)ccc1C(C)(C)C | <50 µM
O=Cc1cc(O)c(O)c(O)c1 | 1000 µM
COc1cccc(-c2cc(-c3ccccc3Cl)n3nc(C(=O)O)cc3n2)c1 | >10 µM
Cc1ccc(C(=O)NN2CCOCC2)c(Nc2ccc3cn[nH]c3c2)n1 | <0.01 µg/mL
CN1CCN(/N=C\c2ccc(O)c(O)c2O)CC1 | 30–40 µM
CC(C)C[C@@]1(C(=O)O)C[C@@H](c2nnco2)[C@H](c2nccs2)N1C(=O)c1ccc(C(C)(C)C)cc1 | <50 µM

A second listing of 5 rows from above:

smiles,value
Oc1cc(/C=N\N2CCOCC2)cc(O)c1O,10 µM
c1cc(OCC2CC2)cc(-c2cnc3c(-c4nn[nH]n4)cnn3c2C2CCCCC2)c1,1–10 µM
O=C(O)[C@H](Cc1ccccc1)N(CC#Cc1cc2ccccc2o1)C(=O)c1ccc(Cl)cc1Cl,<5 µM
Cc1ccc(C(=O)NC(C)C)c(Nc2ccc3cn[nH]c3c2)n1,<1 µg/mL
COc1cc(C(=O)N2[C@@H](c3ccccn3)[C@H](C#N)C[C@@]2(CC(C)C)C(=O)O)ccc1C(C)(C)C,<10 µM